A mixed list of measured activities; the numbers were collected in NIAID ChemDB.

Common to all: whole-cell or culture tests; species: HIV-1; endpoint: EC50

ECn is the concentration giving n% inhibition of infection, replication or growth. Two numbers with a dash give a range or band. An empty or dashed field is not shown. Conditions beyond the fields shown may differ between rows.

| SMILES | strain | mutations | cell line | read by | result |
|---|---|---|---|---|---|
| Cc1cc2cn[nH]c2cc1NC(=O)COc1ccc(Cl)cc1C(=O)c1cccc(C#N)c1 | HXB2 | RT-K101E | HeLa + HELA CD4+ | β-galactosidase | <0.01 µM |
| CC(C)C1=C2[C@H]3CC[C@@H]4[C@@]5(C)CC[C@H](OC(=O)[C@H]6C[C@@H](C(=O)O)C6(C)C)C(C)(C)[C@@H]5CC[C@@]4(C)[C@]3(C)CC[C@@]2([C@@H](O)CNC(=O)C2CC2)CC1=O | 92HT599 | - | MT-2 | p24 / ELISA | <1 µM |
| COc1ccccc1C(=O)Nc1ccc(Cl)c(C(=O)OC(C)C)c1 | UC10-resistant (RT Y181C K101E) | RT-Y181C K101E | CEM + CEM-SS | cytopathic effect / XTT | >28 µM |
| CC(C)C1=C2[C@H]3CC[C@@H]4[C@@]5(C)CC[C@H](OC(=O)[C@H]6C[C@@H](C(=O)O)C6(C)C)C(C)(C)[C@@H]5CC[C@@]4(C)[C@]3(C)CC[C@@]2([C@@H](O)CNC(=O)c2ccc3ccccc3n2)CC1=O | 92HT599 | - | MT-2 | p24 / ELISA | <1 µM |
| Cc1cc(S(N)(=O)=O)ccc1NC(=O)COc1ccc(Cl)cc1C(=O)c1cccc(C#N)n1 | HXB2 | RT-P225H | HeLa + HELA CD4+ | β-galactosidase | <0.01 µM |
| CC(C)C1=C2[C@H]3CC[C@@H]4[C@@]5(C)CC[C@H](OC(=O)[C@H]6C[C@@H](C(=O)O)C6(C)C)C(C)(C)[C@@H]5CC[C@@]4(C)[C@]3(C)CC[C@@]2(CCNC(F)(F)c2ccccc2)CC1=O | 92HT599 | - | MT-2 | p24 / ELISA | <1 µM |
| O=C(COc1ccc(Cl)cc1C(=O)c1ccccc1)Nc1ccc2cn[nH]c2c1 | HXB2 (RT-K103N Y181C) Recombinant | RT-K103N Y181C | HeLa + HELA CD4+ | β-galactosidase | 0.011–0.1 µM |
| CCCc1cc(=O)oc2c3c(c4c(c12)OC(C)(C)CC4)O[C@@H](C)[C@H](C)[C@@H]3O | Oxathiin carboxanilide-resistant RT L100I | RT-L100I | CEM + CEM-SS | XTT | >20 µM |
| CC(C)C1=C2[C@H]3CC[C@@H]4[C@@]5(C)CC[C@H](OC(=O)[C@H]6C[C@@H](C(=O)O)C6(C)C)C(C)(C)[C@@H]5CC[C@@]4(C)[C@]3(C)CC[C@@]2(CC(=O)NCC(C)(C)NC(=O)c2ccccn2)CC1=O | 92HT599 | - | MT-2 | p24 / ELISA | <1 µM |
| C/C=C/CSc1cc(NC(=S)c2ccsc2C)ccc1Cl | NL4-3 | RT-A98G | CEM + CEM-SS | p24 | 0.7 µM |
| CCN1CCN(CCNC[C@H](O)[C@@]23CC[C@]4(C)[C@H](CC[C@@H]5[C@@]6(C)CC[C@H](OC(=O)[C@H]7C[C@@H](C(=O)O)C7(C)C)C(C)(C)[C@@H]6CC[C@]54C)C2=C(C(C)C)C(=O)C3)CC1 | 92HT599 | - | MT-2 | p24 / ELISA | <1 µM |
| Cc1cc2[nH]cnc2cc1NC(=O)COc1ccc(Cl)cc1C(=O)c1cc(F)cc(C(F)(F)F)c1 | HXB2 (RT-K103N G190A) Recombinant | RT-K103N G190A | HeLa + HELA CD4+ | β-galactosidase | 0.011–0.1 µM |
| COCCOc1ccc(C(=O)NCC[C@@]23CC[C@]4(C)[C@H](CC[C@@H]5[C@@]6(C)CC[C@H](OC(=O)[C@H]7C[C@@H](C(=O)O)C7(C)C)C(C)(C)[C@@H]6CC[C@]54C)C2=C(C(C)C)C(=O)C3)cc1 | 92HT599 | - | MT-2 | p24 / ELISA | <1 µM |
| Cc1cc(C#N)cc(C(=O)c2cc(Cl)ccc2OCC(=O)Nc2ccc(OCCCN3CC=CC3)cc2C)c1 | HXB2 (RT-K103N Y181C) Recombinant | RT-K103N Y181C | HeLa + HELA CD4+ | β-galactosidase | <0.01 µM |
| CC(C)=CCOc1cc(NC(=S)c2ccsc2C)ccc1Cl | NL4-3 (RT A98G) | RT-A98G | CEM + CEM-SS | cytopathic effect / XTT | 0.009 µM |
| O=C(O)c1cc(-n2cccc2)ccc1Cl | 93IN101 R5 CLADE C | - | PBMC/5.25M7 | luciferase / cell fusion | 82.25 µM |
| CC(C)=CCOc1cc(NC(=S)c2ccoc2C)ccc1Cl | TIBO R82150-resistant (RT A98G V108I) | RT-A98G V108I | CEM + CEM-SS | cytopathic effect / XTT | 0.3 µM |
| Cc1cc(C#N)cc(C(=O)c2cc(Cl)ccc2OCC(=O)Nc2ccc(S(N)(=O)=O)cc2C)c1 | HXB2 | RT-V106I Y181C | HeLa + HELA CD4+ | β-galactosidase | <0.01 µM |

2 of the rows above, restated:

SMILES,strain,mutations,cell line,read by,result
O=C(COc1ccc(Cl)cc1C(=O)c1ccccc1)Nc1ccc2cn[nH]c2c1,HXB2 (RT-K103N Y181C) Recombinant,RT-K103N Y181C,HeLa + HELA CD4+,β-galactosidase,0.011–0.1 µM
Cc1cc2[nH]cnc2cc1NC(=O)COc1ccc(Cl)cc1C(=O)c1cc(F)cc(C(F)(F)F)c1,HXB2 (RT-K103N G190A) Recombinant,RT-K103N G190A,HeLa + HELA CD4+,β-galactosidase,0.011–0.1 µM